Anti-infective test results gathered from many reports (values: NIAID ChemDB through PubChem).

Shared fields: whole-cell or culture tests; species: Rhinovirus; endpoint: inhibition

"inactive" is the filed call at that dose; no cut-off is given. Percent inhibition refers to the dose given; in toxicity tests it is the harm to the cells. Conditions beyond the fields shown may differ between rows. a–b is a range or a potency band. An empty or dashed field is not shown.

| structure | strain or isolate | cells | method | dose | value |
|---|---|---|---|---|---|
| CSc1ccc(Cn2cnc3c(N(C)C)nc(C(F)(F)F)nc32)cc1 | Serotype 3 | M-HELA | plaque count | 8 µM | 39% |
| COc1ccc(N2CCN(c3cccc(C)c3)CC2)nn1 | 100 serotypes |  |  | 0.074 µg/mL | 18% |
| N#Cc1cc([N+](=O)[O-])ccc1Oc1ccc(Cl)c(Cl)c1 | HANK | VERO | plaque count | 0.06 µg/mL | 2.63% |
| O=C(O)Cc1csc(/N=C2\SC[C@@H]3Cc4ccccc4CN23)n1 | Serotype 26 | MRC-5 | cytopathic effect | 125 µg/mL | 80–100% |
| Cc1cc(Cn2cnc3c(N(C)C)nc(C(F)(F)F)nc32)ccc1Cl | Serotype 13 | M-HELA | plaque count | 8 µM | 13% |
| CCOc1cc(O)c(C(=O)/C=C/c2ccc(OC)cc2)c(OC)c1 | 17 serotypes |  |  | 0.036 µg/mL | 18% |
| CN(C)c1nc(C(F)(F)F)nc2c1ncn2Cc1cccc(F)c1 | Serotype 31 | M-HELA | plaque count | 8 µM | 43% |
| O=C(/C=C/c1ccc(O)c(O)c1)Oc1c(-c2ccc(Cl)cc2)oc2ccccc2c1=O | Serotype 14 | HeLa | plaque count | 6.25 µM | 40% |
| Cc1ccc(Cn2cnc3c(N(C)C)nc(C(F)(F)F)nc32)cc1C | Serotype 3 | M-HELA | plaque count | 8 µM | 39% |
| Cc1cc(CCCCCCCOc2ccc(C3=NCCO3)cc2)on1 | 17 serotypes |  |  | 1.575 µg/mL | 53% |
| Cc1cc(Cl)ccc1Cn1cnc2c(N(C)C)nc(C(F)(F)F)nc21 | Serotype 3 | M-HELA | plaque count | 8 µM | 29% |
| COc1cc(C(=O)Oc2c(-c3ccc(Cl)cc3)oc3ccccc3c2=O)ccc1O | Serotype 14 | HeLa | plaque count | 6.25 µM | 36% |
| CN(C)c1nc(C(F)(F)F)nc2c1ncn2Cc1ccc(Br)cc1 | Serotype 5 | M-HELA | plaque count | 8 µM | 37% |
| COc1cc(C(=O)Oc2c(-c3ccc(Cl)cc3)oc3ccccc3c2=O)cc(OC)c1OC(C)=O | Serotype 1B | HeLa | plaque count | 1.02 µM | inactive |
| Cc1cccc(C2=CCN(c3ccc(Cl)nn3)CC2)c1 | 17 serotypes |  |  | 5 µg/mL | 71% |
| O=S(=O)([O-])c1ccc2c(NS(=O)(=O)c3ccccc3)cc(S(=O)(=O)[O-])cc2c1 |  | Human amnion AV3 cells | cytopathic effect | 50 µg/mL | 15% |
| COc1ccc(Cn2cnc3c(N(C)C)nc(C(F)(F)F)nc32)cc1C | Serotype 3 | M-HELA | plaque count | 8 µM | 28% |
| Nc1ccc2c(O)cc(S(=O)(=O)[O-])cc2c1S(=O)(=O)[O-] |  | Human amnion AV3 cells | cytopathic effect | 50 µg/mL | 10% |
| CC(=O)Oc1ccc(/C=C/C(=O)Oc2c(-c3ccc(Cl)cc3)oc3ccccc3c2=O)cc1OC(C)=O | Serotype 1B | HeLa | plaque count | 0.39 µM | 17% |
| O=S(=O)([O-])c1cc(NS(=O)(=O)c2ccccc2)c2c(S(=O)(=O)[O-])cc(S(=O)(=O)[O-])cc2c1 |  | Human embryonic lung cells | cytopathic effect | 5 µg/mL | 20% |
| COc1cc(C(=O)Oc2c(-c3ccc(Cl)c(Cl)c3)oc3ccccc3c2=O)cc(OC)c1OC(C)=O | Serotype 14 | HeLa | plaque count | 6.25 µM | 30% |

For reference, 2 entries again:

structure,strain or isolate,cells,method,dose,value
CN(C)c1nc(C(F)(F)F)nc2c1ncn2Cc1ccc(Br)cc1,Serotype 5,M-HELA,plaque count,8 µM,37%
Cc1cc(Cn2cnc3c(N(C)C)nc(C(F)(F)F)nc32)ccc1Cl,Serotype 13,M-HELA,plaque count,8 µM,13%